Drawing on ChEMBL document CHEMBL4665791 (J Med Chem, 2020), this text covers Ki for one molecule.

By UniProt entry, the sequences of proteins in these tests, tags left out. Residues count along the entry.
UniProt P0DPI0, 2-448 limits assumed: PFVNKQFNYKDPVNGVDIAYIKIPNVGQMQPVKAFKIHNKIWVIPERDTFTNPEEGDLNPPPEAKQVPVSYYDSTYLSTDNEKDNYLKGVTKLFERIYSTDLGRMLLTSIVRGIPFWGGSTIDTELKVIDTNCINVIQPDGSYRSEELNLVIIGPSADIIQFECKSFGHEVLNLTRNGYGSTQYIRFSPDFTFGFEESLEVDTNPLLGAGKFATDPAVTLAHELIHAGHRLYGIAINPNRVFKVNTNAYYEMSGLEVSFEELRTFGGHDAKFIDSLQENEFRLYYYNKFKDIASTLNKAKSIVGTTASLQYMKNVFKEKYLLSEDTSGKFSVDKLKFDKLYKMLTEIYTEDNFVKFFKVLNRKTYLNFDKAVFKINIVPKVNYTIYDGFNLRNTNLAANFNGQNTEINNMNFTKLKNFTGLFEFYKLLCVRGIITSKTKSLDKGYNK

The target in this assay is Botulinum neurotoxin type A (Clostridium botulinum, UniProt P0DPI0).

`CS(=O)(=O)SCCCCCCCN(O)C(=O)/C=C/c1ccc(Cl)cc1Cl` displayed a Ki of 88 µM.

One may read the Ki as a measure of affinity in units of concentration, obtained from inhibition or displacement. Lower therefore signals a stronger hold on the target.
